# From patent US20100104550
# Key:
# [1] = biological target: purified human Hsc70 (Stressgen), P11142
# [2] = biological target: purified human Hsp70 (Stressgen), P0DMV8
protein,measurement,setting,value
Subtilase cytotoxin (SubAB) holotoxin (protein) chain 1: EKPWYFDAIGLTETTMSLTDKNTPVVVSVVDSGVAFIGGLSDSEFAKFSFTQDGSPFPVKKSEALYIHGTAMASLIASRYGIYGVYPHALISSRRVIPDGVQDSWIRAIESIMSNVFLAPGEEKIINISGGQKGVASASVWTELLSRMGRNNDRLIVAAVGNDGADIRKLSAQQRIWPAAYHPVSSVNKKQDPVIRVAALAQYRKGETPVLHGGGITGSRFGNNWVDIAAPGQNITFLRPDAKTGTGSGTSEATAIVSGVLAAMTSCNPRATATELKRTLLESADKYPSLVDKVTEGRVLNAEKAISMFCKKNYIPVRQGRMSEEL chain 2: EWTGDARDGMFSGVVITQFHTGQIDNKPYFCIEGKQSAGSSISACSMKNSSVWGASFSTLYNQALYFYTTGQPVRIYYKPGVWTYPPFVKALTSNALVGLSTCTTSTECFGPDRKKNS,"in vitro cleavage of purified chaperone, SDS-PAGE",[1],SubAB did not cleave purified human Hsp70 and Hsc70 proteins in vitro
same,"in vitro cleavage of purified chaperone, SDS-PAGE",[2],SubAB did not cleave purified human Hsp70 and Hsc70 proteins in vitro
